Data as given in publication PMC6372279 (eLife, 2019).

Protein sequences, listed by entry. Tags and fused reporters are not part of them. Residues count along the entry.
UniProt P06213, 28-758 limits assumed: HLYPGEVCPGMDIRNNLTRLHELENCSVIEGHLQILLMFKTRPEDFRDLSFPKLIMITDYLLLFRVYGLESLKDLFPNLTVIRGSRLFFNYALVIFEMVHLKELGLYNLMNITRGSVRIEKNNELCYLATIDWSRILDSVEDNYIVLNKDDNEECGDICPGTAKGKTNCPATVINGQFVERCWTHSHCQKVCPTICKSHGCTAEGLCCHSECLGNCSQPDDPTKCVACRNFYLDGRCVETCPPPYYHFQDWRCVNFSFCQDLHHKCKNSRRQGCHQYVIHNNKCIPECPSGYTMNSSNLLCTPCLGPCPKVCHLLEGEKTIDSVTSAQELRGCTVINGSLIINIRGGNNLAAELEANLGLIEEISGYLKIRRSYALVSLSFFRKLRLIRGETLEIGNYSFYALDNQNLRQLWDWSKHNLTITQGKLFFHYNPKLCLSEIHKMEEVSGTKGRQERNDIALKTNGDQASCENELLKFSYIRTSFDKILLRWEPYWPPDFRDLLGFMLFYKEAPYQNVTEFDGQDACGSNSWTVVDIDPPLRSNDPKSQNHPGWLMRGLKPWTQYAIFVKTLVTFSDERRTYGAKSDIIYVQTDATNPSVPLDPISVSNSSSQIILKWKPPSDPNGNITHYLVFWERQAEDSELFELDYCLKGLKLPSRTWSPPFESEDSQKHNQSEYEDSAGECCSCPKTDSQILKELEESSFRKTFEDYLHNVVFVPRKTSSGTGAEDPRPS
UniProt P06213, 763-1382 partner limits assumed: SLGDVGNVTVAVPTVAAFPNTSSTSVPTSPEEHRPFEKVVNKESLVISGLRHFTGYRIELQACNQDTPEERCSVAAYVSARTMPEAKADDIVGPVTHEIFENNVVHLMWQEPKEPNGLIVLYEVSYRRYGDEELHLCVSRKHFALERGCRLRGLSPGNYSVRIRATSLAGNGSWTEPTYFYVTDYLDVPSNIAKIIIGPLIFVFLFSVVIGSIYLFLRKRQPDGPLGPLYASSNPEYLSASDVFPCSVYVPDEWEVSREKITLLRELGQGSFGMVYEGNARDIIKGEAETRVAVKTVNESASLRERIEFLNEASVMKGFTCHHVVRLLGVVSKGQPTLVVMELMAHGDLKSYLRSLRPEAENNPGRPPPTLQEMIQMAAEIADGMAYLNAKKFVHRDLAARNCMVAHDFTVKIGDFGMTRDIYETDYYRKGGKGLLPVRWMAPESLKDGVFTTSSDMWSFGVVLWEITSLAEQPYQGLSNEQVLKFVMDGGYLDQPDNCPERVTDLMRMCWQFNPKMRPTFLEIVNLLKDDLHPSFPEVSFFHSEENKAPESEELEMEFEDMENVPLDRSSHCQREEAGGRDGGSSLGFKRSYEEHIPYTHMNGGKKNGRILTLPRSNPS

What was measured:
human IR-B = human IR-B (Homo sapiens, UniProt P06213); assay: hIR-B autophosphorylation (Tyr1150/1151) HTRF assay in NIH 3T3 cells overexpressing human IR-B; type: cell-based; settings: compared to hIns
[1] = tested on: STZ-induced hyperglycemic mice; assay: Reversal of STZ-induced hyperglycemia in mice; type: in vivo, mouse; settings: equivalent to 1 IU/kg body weight, before lowering, mean, n = 3

Structure (SMILES): CC[C@H](C)[C@@H]1NC(=O)[C@H](Cc2ccc(O)cc2)NC(=O)[C@H](CO)NC(=O)[C@H](CC(N)=O)NC(=O)[C@@H]2CCCN2C(=O)[C@H]([C@@H](C)CC)NC(=O)[C@H](CC(C(=O)O)C(=O)O)NC(=O)[C@H](CO)NC(=O)CNC(=O)[C@@H](NC(=O)[C@H](CCCNC(=N)N)NC(=O)[C@H](Cc2ccc(O)cc2)NC(=O)[C@H](CCCCN)NC(=O)[C@@H]2C[C@@H](O)CN2C(=O)[C@@H](NC(=O)[C@H](CC(=O)O)NC(=O)[C@H](CO)NC(=O)[C@@H](N)CC(N)=O)[C@@H](C)O)CSSC[C@@H]2NC(=O)[C@@H](NC(=O)[C@H](Cc3c[nH]cn3)NC(=O)[C@H](CC(C(=O)O)C(=O)O)NC(=O)[C@@H](NC(=O)[C@@H](NC(=O)CN)C(C)C)C(C)C)C[Se][Se]C[C@H](NC(=O)[C@@H]3CCCN3C(=O)[C@H](CCCNC(=N)N)NC(=O)[C@H](Cc3c[nH]cn3)NC2=O)C(=O)N[C@@H](CO)C(=O)N[C@@H](CC(N)=O)C(=O)N[C@@H](C)C(=O)N[C@@H](CCC(=O)O)C(=O)N[C@@H](Cc2ccccc2)C(=O)N[C@@H](CCCCN)C(=O)N[C@@H](CCCCN)C(=O)N[C@@H](Cc2ccccc2)C(=O)N[C@H](C(N)=O)CSSC[C@@H](C(=O)N[C@@H](Cc2ccccc2)C(=O)O)NC(=O)[C@H](CC(C)C)NC(=O)[C@H](CC(=O)O)NC1=O
- times less potent than hIns, hIR-B phosphorylation (Tyr1150/1151) (human IR-B): 10 times
- Blood glucose, starting value [1]: 541.3 ± 52 mg/dL
